Results taken from patent publication US10144713B1, “Bis-cyclic guanidines as antibacterial agents” (UNIVERSITY OF SOUTH FLORIDA, priority 2017, dated 2018).

Tested on: human red blood cells (hRBCs)
Assay: Hemolytic assay
Type: cell-based
Conditions: HC50/MIC MRSA
Experimental: The freshly drawn, K2EDTA treated human red blood cells (hRBCs) were washed with 1×PBS buffer, and centrifuged at 3500 rpm for 10 min. The step was repeated until the supernatant became clear. The supernatant was removed, and the RBCs were diluted into 5% v/v suspension. 50 μL of the suspension was incubated with 50 μL of compounds of different concentrations at 37° C. for 1 h. The mixture was centrifuged at 3500 rpm for 10 min. Subsequently, to 30 μL of the supernatant 100 μL PBS was added, and the absorbance of the mixture at 540 nm was read on a Biotek Synergy HT plate reader. The positive control was 2% Triton X-100, and the negative control was 1×PBS alone. The hemolysis activity was calculated by the formula % hemolysis=(Abssample−AbsPBS)/(AbsTriton−AbsPBS)×100%. The experiment was repeated at least three times with duplicates each time.

SMILES	Activity Index
N=C1N(CC(=O)Nc2ccc(NC(=O)CN3C[C@H](Cc4ccccc4)N(CCCc4ccccc4)C3=N)cc2)C[C@H](Cc2ccccc2)N1CCCc1ccccc1 [Compound 5]	424
N=C1N(CC(=O)Nc2cccc(NC(=O)CN3C[C@H](Cc4ccccc4)N(CCCc4ccccc4)C3=N)c2)C[C@H](Cc2ccccc2)N1CCCc1ccccc1 [Compound 6]	>83
N=C1N(CC(=O)NCCCCCCNC(=O)CN2C[C@H](Cc3ccccc3)N(CCCc3ccccc3)C2=N)C[C@H](Cc2ccccc2)N1CCCc1ccccc1 [Compound 9]	66
CCCCCCN1C(=N)N(CC(=O)Nc2ccc(NC(=O)CN3C[C@H](Cc4ccccc4)N(CCCCCC)C3=N)cc2)C[C@@H]1Cc1ccccc1 [Compound 11]	>769
CCCCCCN1C(=N)N(CC(=O)Nc2cccc(NC(=O)CN3C[C@H](Cc4ccccc4)N(CCCCCC)C3=N)c2)C[C@@H]1Cc1ccccc1 [Compound 12]	>1534
CCCCCCN1C(=N)N(CC(=O)NCCCCNC(=O)CN2C[C@H](Cc3ccccc3)N(CCCCCC)C2=N)C[C@@H]1Cc1ccccc1 [Compound 13]	>333
CCCCCCN1C(=N)N(CC(=O)NCCCCCCNC(=O)CN2C[C@H](Cc3ccccc3)N(CCCCCC)C2=N)C[C@@H]1Cc1ccccc1 [Compound 14]	>769
CCCCCCN1C(=N)N(CC(=O)NCCCCCCCCNC(=O)CN2C[C@H](Cc3ccccc3)N(CCCCCC)C2=N)C[C@@H]1Cc1ccccc1 [Compound 15]	>333
N=C1N(CC(=O)Nc2ccc(NC(=O)CN3C[C@H](Cc4ccccc4)N(CCCC4CCCCC4)C3=N)cc2)C[C@H](Cc2ccccc2)N1CCCC1CCCCC1 [Compound 19]	6
N=C1N(CC(=O)Nc2cccc(NC(=O)CN3C[C@H](Cc4ccccc4)N(CCCC4CCCCC4)C3=N)c2)C[C@H](Cc2ccccc2)N1CCCC1CCCCC1 [Compound 20]	80
CCCCCCN1C(=N)N(CC(=O)Nc2cccc(NC(=O)CN3C[C@H](CC(C)C)N(CCCCCC)C3=N)c2)C[C@@H]1CC(C)C [Compound 23]	266
